Results of unrelated studies side by side (data: NIAID ChemDB).

Common to all: tests in culture; species: Mycobacterium tuberculosis

MIC bound: limit read from a one-dose screen. ECn is the concentration giving n% inhibition of infection, replication or growth. Blank or dashed fields: not listed here. Percent inhibition refers to the dose given; in toxicity tests it is the harm to the cells. MIC50, MIC90 and the like: level of inhibition, or share of isolates inhibited. Rows are shuffled and stem from different studies.

smiles	read by	setting	tested at	cells	strain or isolate	read-out	result
N#CC1C(=O)SC2c3ccccc3C(=O)c3ccccc3C12	BACTEC		12.5 µg/mL		H37Rv	inhibition	18%
O=C(/C=C/c1c(F)cccc1Cl)c1ccc(F)cc1	MTT	21 d			H37Rv	MIC	64 µg/mL
Cc1ccc2c(c1)c(N=NC(=S)Nc1ccccc1)c(O)n2C	broth dilution / resazurin				H37Rv	EC50	46.5 µg/mL
CC[C@@H](CO)NCCN[C@@H](CC)CO	broth dilution / resazurin				MDR10	MIC	16 µg/mL
COc1ccc(CNCCNCCc2ccc(Cl)cc2Cl)cc1OC						MIC	50 µM
O=C(/C=C/c1ccccc1)c1ccc(O)cc1	resazurin	14 d			H37Rv	MIC	32 µg/mL
c1ccc(-n2cc(CSC3c4ccccc4-c4ccccc43)nn2)cc1	broth dilution				Specimen 192	MIC99	141 µM
CC(=O)NN						MIC	>200 µg/mL
O=C(NNc1ccccc1)C(O)C(=O)C(O)C(O)C(O)CO	BACTEC				H37Rv	MIC bound	>12.5 µg/mL
O=C(N/N=C/c1ccccc1[N+](=O)[O-])c1ccccc1						MIC	1 µg/mL
COc1ccc2oc(=O)n(-c3ccccc3)c(=O)c2c1					CNCTC MY331/88	MIC	125 µM
NCC[C@H](O)C(=O)N[C@@H]1C[C@H](N)[C@@H](O[C@H]2O[C@H](CN)[C@@H](O)[C@H](O)[C@H]2O)[C@H](O)[C@H]1O[C@H]1O[C@H](CO)[C@@H](O)[C@H](N)[C@H]1O					TN1521 (BU)	MIC	>256 µg/mL
CO/N=C1\CN(c2nc3c(cc2F)c(=O)c(C(=O)O)cn3C2CC2)CC1CN					250 isolates	MIC90	8 µg/mL
N#Cc1ccc(C(=O)NN)cc1						MIC	<40 µg/mL
CC1CCCCN1.CC1CCCCN1C(=S)S					TAC-R	MIC	0.8 µg/mL
COc1cc(CNCCNCc2ccccc2F)cc(OC)c1OC						MIC	50 µM
CC1NCCCN(CCN(C)C)CCCNC(C)c2cccc1n2	resazurin				H37Rv	MIC bound	>6.25 µg/mL
CN(C)c1ccc(C(=O)NN)cc1						MIC	40 µg/mL
CC(=O)N[C@H]1[C@H]([C@H](O)[C@H](O)CO)O[C@](O)(C(=O)O)C[C@@H]1O	BACTEC				H37Rv	MIC	≥12.8 µg/mL
Brc1ccc(-n2cc(CSC3c4ccccc4-c4ccccc43)nn2)cc1	broth dilution				H37Rv	MIC99	57.55 µM
COC(=O)[C@]1(C)CCC[C@]2(C)C3=C[C@@H](O)[C@@]4(C(C)C)O[C@H]4[C@]3(O)CC[C@@H]12	BACTEC				H37Rv	MIC	≥12.5 µg/mL
COc1c(N2CCNC(C)C2)c(F)cc2c(=O)c(C(=O)O)cn(C3CC3)c12					22 strains (rifampin- isoniazid-resistant)	MIC50	0.39 µg/mL
C=CCNC(=S)N=Nc1c(O)n(C)c2ccc(C)cc12	broth dilution / resazurin				H37Rv	EC90	>100 µg/mL
COc1ccc(CCNCCNCCC(c2ccccc2)c2ccccc2)cc1						MIC	50 µM
CO[C@H]1/C=C/O[C@@]2(C)Oc3c(C)c(O)c4c(=O)c(c5oc6cc(N7CCN(C(C)C)CC7)cc(=O)c6nc5c4c3=C2O)NC(=O)/C(C)=C\C=C\[C@H](C)[C@H](O)[C@@H](C)[C@@H](O)[C@@H](C)[C@H](OC(C)=O)[C@@H]1C					2983 (rifampin-sensitive)	MIC	0.006 µg/mL
Clc1ccc(-n2cc(CSC3c4ccccc4-c4ccccc43)nn2)cc1Cl	broth dilution				H37Rv	MIC99	>236 µM
C[C@@H]1CN(c2c(F)c(N)c3c(=O)c(C(=O)O)cn(C4CC4)c3c2F)C[C@H](C)N1					900145	MIC	0.5 µg/mL
CC1COc2c(N3CCN(C)CC3)c(F)cc3c(=O)c(C(=O)O)cn1c23					44 isolates (resistant)	Mean MIC	1.171 µg/mL
Cc1ccc(NC(=S)N=Nc2c(O)n(CN3CCOCC3)c3ccc(OC(F)(F)F)cc23)cc1	broth dilution / resazurin				H37Rv	EC90	>100 µg/mL
CC(C)=NNC(=O)CC(=O)NN=C(C)C						MIC	>200 µg/mL
CN(C)CCN1C(=O)c2ccccc2N(C)c2ccccc21	BACTEC				H37Rv	MIC bound	>12.5 µg/mL
O=C(NN=C1CCCCC1)c1ccccc1						MIC	50 µg/mL
COc1cc(O)c2c(c1)C(=O)c1cc3c(c(O)c1C2=O)C(OC1OC(C)C(O)C(O)C1OC)C(OC)C(C)(O)C3=O	BACTEC				H37Rv	MIC bound	>12.5 µg/mL
CCCCC(CC)CN1CN(CC(CC)CCCC)CC(C)(NCCNC2CCCCC2)C1						MIC	12.5 µM
Clc1ccc(-n2cc(CSC3c4ccccc4-c4ccccc43)nn2)c(Cl)c1	broth dilution				H37Rv	MIC99	>236 µM
Cn1c(O)c(N=NC(=S)Nc2ccc(Br)cc2)c2cc(OC(F)(F)F)ccc21	broth dilution / resazurin				H37Rv	EC90	>100 µg/mL
O=C1C=CC(=O)c2nc3ccccc3nc21	BACTEC		12.5 µg/mL		H37Rv	inhibition	16%
COC(=O)C1=C(C)N(c2ccccc2)C(C)=C(C(=O)OC)C1c1ccc(O)c(OC)c1					H37Rv	MIC	>6.25 µg/mL
CC(Cc1ccc(Cl)cc1)NCCNC[C@]1(C)CCC[C@]2(C)c3ccc(C(C)C)cc3CC[C@@H]12						MIC	50 µM
CCNC(=O)OCCN1C(=O)C2C3CCC(O3)C2C1=O	BACTEC				H37Rv	MIC bound	>12.5 µg/mL
NC1CCN(c2c(F)cc3c(=O)c(C(=O)O)cn(C4CC4)c3c2Cl)C1					ATCC 35823	MIC	0.125 µg/mL
Fc1ccc(-n2cc(CNC3c4ccccc4-c4ccccc43)nn2)cc1	broth dilution				H37Rv	MIC99	281 µM
CC(C)(C)OC(=O)NC(Cc1c[nH]c2ccccc12)C(=O)NC(CS)C(=O)NN	BACTEC				H37Rv	MIC bound	>12.5 µg/mL
C=CCNC(=S)N=Nc1c(O)n(C)c2ccc(OC(F)(F)F)cc12	broth dilution / resazurin				H37Rv	EC50	2.731 µg/mL
CC[C@H]1OC(=O)[C@H](C)[C@@H](O[C@H]2C[C@@](C)(OC)[C@@H](O)[C@H](C)O2)[C@H](C)[C@@H](O[C@@H]2O[C@H](C)C[C@H](N(C)C)[C@H]2O)[C@](C)(OC)C[C@@H](C)C(=O)[C@H](C)[C@@H](O)[C@]1(C)O					27 strains (levofloxacin-susceptible)	MIC50	25 µg/mL
Oc1[nH]c2ccc(OC(F)(F)F)cc2c1N=NC(=S)NCc1ccccc1	broth dilution / resazurin				H37Rv	EC50	1.11 µg/mL
COc1cc(C(=O)NCC(=O)NN)cc(OC)c1OC	BACTEC				H37Rv	MIC	≥12.5 µg/mL
O=c1[nH]nc(-c2ccccc2Cl)[nH]1						MIC	>40 µg/mL
COc1ccc2c(c1OC)C(Cc1ccccc1)[N+]1(C)CCc3cc4c(cc3C1C2)OCO4.[I-]	BACTEC				H37Rv	MIC bound	>12.5 µg/mL
COc1cccc(/C=C/C(=O)c2ccc(F)cc2)c1F	resazurin	14 d			H37Rv	MIC	32 µg/mL
Oc1c(N=NC(=S)NCc2ccccc2)c2cc(OC(F)(F)F)ccc2n1CN1CCOCC1	broth dilution / resazurin				H37Rv	EC50	1.001 µg/mL
Nc1ccc2c(n1)NCC/C2=N\Nc1ccccc1	BACTEC		12.5 µg/mL		H37Rv	inhibition	96%
CC1COc2c(N3CCN(C)CC3)c(F)cc3c(=O)c(C(=O)O)cn1c23					MDR	MBC90	8 µg/mL
O=C(NNC(=O)c1ccccc1)C(=O)NNC(=O)c1ccccc1						MIC	>200 µg/mL
O=c1oc2ccc(Br)cc2c(=O)n1-c1ccccc1					CNCTC MY331/88	MIC	31 µM
CCOc1ccccc1CNCCNC(C)c1cccc2ccccc12						MIC	50 µM
O=C(/C=C/c1ccc(F)cc1)c1ccc(F)cc1	resazurin	7 d			H37Rv	MIC	32 µg/mL
CCC(C)C1C(=O)OC(C(Cl)(Cl)Cl)N1Cc1ccc(OC)cc1OC	BACTEC		12.5 µg/mL		H37Rv	inhibition	-9%
C[C@H]1C[C@H](N)CN1c1cc2c(cc1F)c(=O)c(C(=O)O)cn2-c1ccc(F)cc1F					ATCC 35823	MBC	8 µg/mL
COc1ccc(C(=O)/C=C/c2ccc(F)cc2Cl)cc1	resazurin	21 d			H37Rv	MIC	64 µg/mL
CCc1ccc(-n2cc(CS(=O)(=O)C3c4ccccc4-c4ccccc43)nn2)cc1	broth dilution				Specimen 192	MIC99	120 µM
Cc1ccc2oc(=O)n(-c3ccc(C#N)cc3)c(=O)c2c1					CNCTC MY331/88	MIC	16 µM
CC1CN(c2cc3c(cc2F)c(=O)c(C(=O)O)cn3-c2ccc(F)cc2F)CCN1					H37Rv	MIC	1 µg/mL
Clc1ccc(CCNCCNCC(c2ccccc2)c2ccccc2)c(Cl)c1						MIC	6.25 µM
CC1(O)Nc2nc3c(ncn3[C@@H]3O[C@H](CO)[C@@H](O)[C@H]3O)c(=O)n2C1O	resazurin				H37Rv	MIC bound	>6.25 µg/mL
CC1=C(C(=O)Nc2ccc(F)c(Cl)c2)C(c2cccc(Cl)c2)C(C(=O)Nc2ccc(F)c(Cl)c2)=C(C)N1					H37Rv	MIC	>6.25 µg/mL
CCNC(=S)N=Nc1c(O)[nH]c2ccc(OC(F)(F)F)cc12	broth dilution / resazurin				H37Rv	EC90	>100 µg/mL
O=[N+]([O-])/N=c1/nc2scc(-c3ccc([N+](=O)[O-])cc3)n2s1	resazurin		6.25 µg/mL		H37Rv	inhibition	94%
CC1=C(C(=O)Nc2ccccc2F)C(c2ccccc2)C(C(=O)Nc2ccccc2F)=C(C)N1					H37Rv	MIC	>6.25 µg/mL
N#[N+]c1c([O-])ccc2nc3ccccc3nc12				VERO	H37Rv	MIC	0.78 µg/mL
Cc1ccc(C(=O)/C=C/c2ccccc2)c(F)c1	MTT	14 d			H37Rv	MIC	32 µg/mL
CCCCCCCCCCCCSC(=S)NC1c2ccccc2Oc2ccccc21	BACTEC				H37Rv	MIC	32 µg/mL
C1CCCC(NCCNC2C3CC4CC(C3)CC2C4)CCC1						MIC	25 µM
COc1ccc2c(C)cc(N/N=C/c3ccccn3)nc2c1	BACTEC				H37Rv	MIC bound	≤12.5 µg/mL
O=[N+]([O-])c1ccc(-n2cc(CNC3c4ccccc4-c4ccccc43)nn2)cc1	broth dilution				H37Rv	MIC99	>261 µM
COc1ccccc1NC(=O)C1=C(C)NC(C)=C(C(=O)Nc2ccccc2OC)C1c1ccc(N(C)C)cc1					H37Rv	MIC	<12.5 µg/mL
Fc1ccc(CCNCCNCC(c2ccccc2)c2ccccc2)cc1						MIC	25 µM
Cc1c(N2C[C@@H](N)C3(CC3)C2)c(F)c(N)c2c(=O)c(C(=O)O)cn(C3CC3)c12					18 strains (levofloxacin-resistant)	MIC50	6.25 µg/mL
CC[C@H]1OC(=O)[C@H](C)[C@@H](O[C@H]2C[C@@](C)(OC)[C@@H](O)[C@H](C)O2)[C@H](C)[C@@H](O[C@@H]2O[C@H](C)C[C@H](N(C)C)[C@H]2O)[C@](C)(OC)C[C@@H](C)C(=O)[C@H](C)[C@@H](O)[C@]1(C)O					H37Rv	MIC	>8 µg/mL
O=c1oc2cc(Cl)ccc2c(=O)n1-c1ccc(C(F)(F)F)cc1					CNCTC MY331/88	MIC	2 µM
CO[C@H]1/C=C/O[C@@]2(C)Oc3c(C)c(O)c4c(O)c(c5c(c4c3C2=O)NC2(CCN(CC(C)C)CC2)N=5)=NC(=O)/C(C)=C\C=C\[C@H](C)[C@H](O)[C@@H](C)[C@@H](O)[C@@H](C)[C@H](OC(C)=O)[C@@H]1C					31 (rifampin-resistant)	MBC	0.8 µg/mL
O=C(Cc1ccccc1)NNC(=O)Cc1ccccc1						MIC	100 µg/mL